A mixed list of measured activities; the numbers were collected in NIAID ChemDB.

All rows: growth or infection tests; agent: HIV-1

Conditions beyond the fields shown may differ between rows. ECn is the concentration giving n% inhibition of infection, replication or growth. Two numbers with a dash give a range or band. Blank or dashed fields: not listed here.

smiles	cells	strain	measure	read by	changes	result
CC1(C)Cc2c(Br)c(Br)c(Br)c(OCCCN3CCCCC3)c2O1	MT-4	-	EC50	cytopathic effect / MTT	-	>6 µM
Cc1cc(=O)[nH]c(N2C(=O)/C(=C\c3ccco3)N=C2c2ccccc2)n1	-	-	EC50	RT activity	-	49.12 µg/mL
CN1CCCn2c(nc(C(=O)NCc3ccc(F)cc3)c(O)c2=O)C1(C)C	MT-4	-	EC95	p24	-	<1 µM
O=C(O)Cc1cc(O)ccc1O	MT-4	IIIB	EC50	cytopathic effect / MTT	-	6 µg/mL
CN(C)CCCOc1c(Br)c(Br)c(Br)c2c1OC(C)(C)C2	-	-	EC50	-	-	200 µM
O=C(O)CCc1ccc(O)c(O)c1	MOLT-4	IIIB	EC50	syncytia	-	14 µg/mL
CCOc1ccc(F)c(CCNC(=S)Nc2ncc(C(F)(F)F)s2)c1Cl	MT-4	IIIB	EC50	cytopathic effect / XTT	-	0.07 µM
CNC(=O)c1c(O)c2ncc(Cc3ccc(F)cc3)c3c2n(c1=O)C[C@@](C)(C(=O)OC)O3	MT-2	IIIB	EC50	ATP / luminescence	-	0.0227 µM
CN1CCn2c(nc(C(=O)NCc3ccc(F)cc3)c(O)c2=O)C(N(CC2CCCCC2)C(=O)C(=O)N(C)C)C1	MT-4	-	EC95	p24	-	<1 µM
CC(=O)Nc1ccc(S(=O)(=O)n2cc(/C=N/NC(=O)c3ccccc3)c3ccccc32)cc1	C8166	IIIB	EC50	syncytia / visual reading	-	1.71 µg/mL
CO[C@H]1C[C@@H]2CC[C@@H](C)[C@@](O)(O2)C(=O)C(=O)N2CCCC[C@H]2C(=O)O[C@H]([C@H](C)C[C@@H]2CC[C@@H](O)[C@H](OC)C2)CC(=O)[C@H](C)/C=C(\C)[C@@H](O)[C@@H](OC)C(=O)[C@H](C)C[C@H](C)/C=C/C=C/C=C/1C	PBMC	93BR029 R5 clinical isolate	EC50	p24	-	<0.001 µM
CN1CCn2c(nc(C(=O)NCc3ccc(F)cc3)c(O)c2=O)C(N(Cc2ccccc2)C(=O)C(=O)N(C)C)C1	MT-4	-	EC50	p24	-	<1 µM
Nc1ccn([C@H]2CO[C@@H](CO)O2)c(=O)n1	MT-4	-	EC50	cytopathic effect	-	0.175 µM
COc1cc2c3c(cc4ccccc4c3c1OC)N(CCN1CCCCC1)C2=O	TZM-bl	NL4-3	EC50	luciferase	-	1.06 µM
Cc1cc(C)cc(S(=O)(=O)c2c(C(=O)/C=C/C(N)=O)[nH]c3ccc(Cl)cc23)c1	C8166	IIIB(K-103R)	EC90	p24	RT-K103R	>100 µM
COc1ccccc1C(=O)Nc1ccccc1C(O)c1ccc([N+](=O)[O-])cc1	MT-4	LAI	EC50	-	-	26.6 µM
Cc1cccc(O)c1O	MOLT-4	IIIB	EC50	syncytia	-	15 µg/mL
COc1ccc(C(O)c2ccccc2C(=O)Nc2ccccc2OC)cc1	MT-4	LAI	EC50	-	-	>100 µM
C/C(=N\NC(=O)c1ccccc1)c1cn(S(=O)(=O)c2ccc(C)cc2)c2ccc([N+](=O)[O-])cc12	C8166	IIIB	EC50	syncytia / visual reading	-	2.55 µg/mL
C/C(=C\CC[C@@H](C)[C@H]1CC[C@@]2(C)C1=CC[C@H]1[C@@]3(C)CC[C@H](O)C(C)(C)[C@@H]3CC[C@@]12C)C(=O)O	1A2	deltaTAT/Rev MC99	EC50	syncytia	-	1 µg/mL
Cc1cn([C@H]2CS[C@@H](CO)O2)c(=O)[nH]c1=O	MT-4	-	EC50	cytopathic effect	-	>410 µM
COc1cc(/C=C2/N=C(c3ccccc3)N(c3nc(C)cc(Cl)n3)C2=O)cc(OC)c1OC	-	-	EC50	RT activity	-	30.96 µg/mL
O=C(O)c1cc(O)c(O)c(O)c1	MT-4	IIIB	EC50	cytopathic effect / MTT	-	11 µg/mL
O=C(NCCCn1cccn1)c1c(O)c2ncc(Cc3ccc(F)cc3)c3c2n(c1=O)CC(F)(F)CN3	MT-2	IIIB	EC50	ATP / luminescence	-	0.003 µM
Cc1nnc(C(C)C)n1C1C[C@H]2CC[C@@H](C1)N2CC[C@H](NC(=O)C1CCC(F)(F)CC1)c1ccccc1	TZM-bl	pTHRO.c/2626	EC50	luciferase	-	0.084 µM
C/C=C1/N=C(C)N(c2nc(C)cc(Cl)n2)C1=O	-	-	EC50	RT activity	-	67.56 µg/mL
CN1CCn2c(nc(C(=O)NCc3ccc(F)cc3)c(O)c2=O)C1CN(C)S(=O)(=O)N(C)C	MT-4	-	EC50	p24	-	1–10 µM
C/C(=N\NC(=O)c1ccccc1)c1cn(S(=O)(=O)c2ccc(C)cc2)c2ccccc12	C8166	IIIB	EC50	syncytia / visual reading	-	0.93 µg/mL
O=c1[nH]cnc2c1[nH]c[n+]2[C@@H]1CS[C@@H](CO)O1	MT-4	-	EC50	cytopathic effect	-	>410 µM
COc1ccccc1NC(=O)c1ccccc1C(O)c1ccc([N+](=O)[O-])cc1	MT-4	LAI	EC50	-	-	>100 µM
Nc1ccn([C@@H]2CO[C@H](CO)O2)c(=O)n1	MT-4	-	EC50	cytopathic effect	-	>0.465 µM
CCOc1c(Cl)cc(F)c(CCNC(=S)Nc2ccc(Br)cn2)c1Cl	MT-4	IIIB	EC50	cytopathic effect / XTT	RT-L100I	1 µM
Nc1ncnc2c1ncn2[C@@H]1CO[C@@H](CO)S1	MT-4	-	EC50	cytopathic effect	-	>395 µM
Cc1ccc(S(=O)(=O)n2cc(/C=N/NC(=O)c3ccccc3)c3ccc(C)cc32)cc1	C8166	IIIB	EC50	syncytia / visual reading	-	8.25 µg/mL
COC(=O)N1CCn2c(nc(C(=O)NCc3ccc(F)cc3)c(O)c2=O)C1CN(C)C	MT-4	-	EC95	p24	-	<50 µM
Oc1cccc(O)c1O	MT-4	IIIB	EC50	cytopathic effect / MTT	-	10 µg/mL
C/C(=N\NC(=O)c1ccccc1)c1cn(S(=O)(=O)c2ccccc2)c2ccc([N+](=O)[O-])cc12	C8166	IIIB	EC50	syncytia / visual reading	-	0.5 µg/mL
COc1cc2c3c(cc4cc(Cl)ccc4c3c1OC)N(CCN1CCCCC1)C2=O	TZM-bl	NL4-3	EC50	luciferase	-	0.44 µM
COc1cc(/C=C2/N=C(c3ccccc3)N(c3nc(C)cc(=O)[nH]3)C2=O)cc(OC)c1OC	-	-	EC50	RT activity	-	57 µg/mL
COC(=O)c1ccc(C(O)c2ccccc2NC(=O)c2ccccc2OC)cc1	MT-4	LAI	EC50	-	-	>100 µM
CNC(=O)c1c(O)c2ncc(Cc3ccc(F)cc3)c3c2n(c1=O)C[C@](C)(C(=O)NCCO)O3	MT-2	IIIB	EC50	ATP / luminescence	-	0.014 µM
O=C(O)Cc1ccc(O)c(O)c1	MOLT-4	IIIB	EC50	syncytia	-	5 µg/mL
O=C(NCc1ccc(F)cc1)c1nc2n(c(=O)c1O)CCNC2	MT-4	-	EC50	p24	-	<50 µM
CN1N=C(N)c2cn([C@@H]3O[C@H](COP(=O)(O)O)[C@@H](O)[C@H]3O)c3ncnc1c23	CEM + CEM-SS	MN	EC50	cytopathic effect / XTT	-	0.02 µM
CNC(=O)[C@H]1Cn2c(=O)c(C(=O)NCCC#N)c(O)c3ncc(Cc4ccc(F)cc4)c(c32)O1	MT-2	IIIB	EC50	ATP / luminescence	-	0.041 µM
COc1cc2c3c(cc4cc(F)ccc4c3c1OC)N(CCN1CCCCC1)C2=O	TZM-bl	NL4-3	EC50	luciferase	-	0.55 µM
Nc1nc(=O)n(CCN2C(=O)CSC2COc2ccccc2)cc1F	MT-4	-	EC50	cytopathic effect	-	1–10 µM
CN(C)CCOc1c(Br)c(Br)c(Br)c2c1OC(C)(C)C2	-	-	EC50	-	-	110 µM
Cc1cn([C@@H]2CS[C@@H](CO)O2)c(=O)[nH]c1=O	MT-4	-	EC50	cytopathic effect	-	>410 µM

Again, the opening 4 rows:

smiles	cells	strain	measure	read by	changes	result
CC1(C)Cc2c(Br)c(Br)c(Br)c(OCCCN3CCCCC3)c2O1	MT-4	-	EC50	cytopathic effect / MTT	-	>6 µM
Cc1cc(=O)[nH]c(N2C(=O)/C(=C\c3ccco3)N=C2c2ccccc2)n1	-	-	EC50	RT activity	-	49.12 µg/mL
CN1CCCn2c(nc(C(=O)NCc3ccc(F)cc3)c(O)c2=O)C1(C)C	MT-4	-	EC95	p24	-	<1 µM
O=C(O)Cc1cc(O)ccc1O	MT-4	IIIB	EC50	cytopathic effect / MTT	-	6 µg/mL